Experimental data published in US9625458B2, “Biosensor” (priority 2002, dated 2017).

B1: arabinose BP L298C NBD (conjugate, UniProt P02924 24-329, looked up, variant L298C)
L-arabinose-binding …: ENLKLGFLVKQPEEPWFQTEWKFADKAGKDLGFEVIKIAVPDGEKTLNAIDSLAASGAKGFVICTPDPKLGSAIVAKARGYDMKVIAVDDQFVNAKGKPMDTVPLVMMAATKIGERQGQELYKEMQKRGWDVKESAVMAITANELDTARRRTTGSMDALKAAGFPEKQIYQVPTKSNDIPGAFDAANSMLVQHPEVKHWLIVGMNDSTVLGGVRATEGQGFKAADIIGIGINGVDAVSELSKAQATGFYGSLLPSPDVHGYKSSEMLYNWVAKDVEPPKFTEVTDVVLITRDNFKEECEKKGLGGK
modifications: NBD label
B2: phosphate BP S39C JPW4042 (conjugate, UniProt P0AG82 26-346, looked up, variant S39C)
Phosphate-binding protein PstS: EASLTGAGATFPAPVYAKWADTYQKETGNKVNYQGIGSCGGVKQIIANTVDFGASDAPLSDEKLAQEGLFQFPTVIGGVVLAVNIPGLKSGELVLDGKTLGDIYLGKIKKWDDEAIAKLNPGLKLPSQNIAVVRRADGSGTSFVFTSYLAKVNEEWKNNVGTGSTVKWPIGLGGKGNDGIAAFVQRLPGAIGYVEYAYAKQNNLAYTKLISADGKPVSPTEENFANAAKGADWSKTFAQDLTNQKGEDAWPITSTTFILIHKDQKKPEQGTEVLKFFDWAYKTGAKQANDLDYASLPDSVVEQVRAAWKTNIKDSSGKPLY
modifications: JPW4042 dye label
B3: phosphate BP S39C Acrylodan (conjugate, UniProt P0AG82 26-346, looked up, variant S39C)
Phosphate-binding protein PstS: EASLTGAGATFPAPVYAKWADTYQKETGNKVNYQGIGSCGGVKQIIANTVDFGASDAPLSDEKLAQEGLFQFPTVIGGVVLAVNIPGLKSGELVLDGKTLGDIYLGKIKKWDDEAIAKLNPGLKLPSQNIAVVRRADGSGTSFVFTSYLAKVNEEWKNNVGTGSTVKWPIGLGGKGNDGIAAFVQRLPGAIGYVEYAYAKQNNLAYTKLISADGKPVSPTEENFANAAKGADWSKTFAQDLTNQKGEDAWPITSTTFILIHKDQKKPEQGTEVLKFFDWAYKTGAKQANDLDYASLPDSVVEQVRAAWKTNIKDSSGKPLY
modifications: acrylodan conjugate
B4: phosphate BP S39C NBD (conjugate, UniProt P0AG82 26-346, looked up, variant S39C)
Phosphate-binding protein PstS: EASLTGAGATFPAPVYAKWADTYQKETGNKVNYQGIGSCGGVKQIIANTVDFGASDAPLSDEKLAQEGLFQFPTVIGGVVLAVNIPGLKSGELVLDGKTLGDIYLGKIKKWDDEAIAKLNPGLKLPSQNIAVVRRADGSGTSFVFTSYLAKVNEEWKNNVGTGSTVKWPIGLGGKGNDGIAAFVQRLPGAIGYVEYAYAKQNNLAYTKLISADGKPVSPTEENFANAAKGADWSKTFAQDLTNQKGEDAWPITSTTFILIHKDQKKPEQGTEVLKFFDWAYKTGAKQANDLDYASLPDSVVEQVRAAWKTNIKDSSGKPLY
modifications: NBD dye conjugate
B5: phosphate BP S39C Fluorescein (conjugate, UniProt P0AG82 26-346, looked up, variant S39C)
Phosphate-binding protein PstS: EASLTGAGATFPAPVYAKWADTYQKETGNKVNYQGIGSCGGVKQIIANTVDFGASDAPLSDEKLAQEGLFQFPTVIGGVVLAVNIPGLKSGELVLDGKTLGDIYLGKIKKWDDEAIAKLNPGLKLPSQNIAVVRRADGSGTSFVFTSYLAKVNEEWKNNVGTGSTVKWPIGLGGKGNDGIAAFVQRLPGAIGYVEYAYAKQNNLAYTKLISADGKPVSPTEENFANAAKGADWSKTFAQDLTNQKGEDAWPITSTTFILIHKDQKKPEQGTEVLKFFDWAYKTGAKQANDLDYASLPDSVVEQVRAAWKTNIKDSSGKPLY
modifications: fluorescein conjugate
B6: phosphate BP S39C JPW4045 (conjugate, UniProt P0AG82 26-346, looked up, variant S39C)
Phosphate-binding protein PstS: EASLTGAGATFPAPVYAKWADTYQKETGNKVNYQGIGSCGGVKQIIANTVDFGASDAPLSDEKLAQEGLFQFPTVIGGVVLAVNIPGLKSGELVLDGKTLGDIYLGKIKKWDDEAIAKLNPGLKLPSQNIAVVRRADGSGTSFVFTSYLAKVNEEWKNNVGTGSTVKWPIGLGGKGNDGIAAFVQRLPGAIGYVEYAYAKQNNLAYTKLISADGKPVSPTEENFANAAKGADWSKTFAQDLTNQKGEDAWPITSTTFILIHKDQKKPEQGTEVLKFFDWAYKTGAKQANDLDYASLPDSVVEQVRAAWKTNIKDSSGKPLY
modifications: JPW4045 dye conjugate
B7: dipeptide BP D450C JPW4039 (conjugate, UniProt P23847 29-535, looked up, variant D450C)
Dipeptide-binding protein: KTLVYCSEGSPEGFNPQLFTSGTTYDASSVPLYNRLVEFKIGTTEVIPGLAEKWEVSEDGKTYTFHLRKGVKWHDNKEFKPTRELNADDVVFSFDRQKNAQNPYHKVSGGSYEYFEGMGLPELISEVKKVDDNTVQFVLTRPEAPFLADLAMDFASILSKEYADAMMKAGTPEKLDLNPIGTGPFQLQQYQKDSRIRYKAFDGYWGTKPQIDTLVFSITPDASVRYAKLQKNECQVMPYPNPADIARMKQDKSINLMEMPGLNVGYLSYNVQKKPLDDVKVRQALTYAVNKDAIIKAVYQGAGVSAKNLIPPTMWGYNDDVQDYTYDPEKAKALLKEAGLEKGFSIDLWAMPVQRPYNPNARRMAEMIQADWAKVGVQAKIVTYEWGEYLKRAKDGEHQTVMMGWTGDNGDPDNFFATLFSCAASEQGSNYSKWCYKPFEDLIQPARATCDHNKRVELYKQAQVVMHDQAPALIIAHSTVFEPVRKEVKGYVVDPLGKHHFENVSIE
modifications: JPW4039 dye conjugate
B8: ribose BP A234C JPW4039 (conjugate, UniProt P02925 26-296, looked up, variant A234C)
Ribose import binding protein …: KDTIALVVSTLNNPFFVSLKDGAQKEADKLGYNLVVLDSQNNPAKELANVQDLTVRGTKILLINPTDSDAVGNAVKMANQANIPVITLDRQATKGEVVSHIASDNVLGGKIAGDYIAKKAGEGAKVIELQGIAGTSAARERGEGFQQAVAAHKFNVLASQPADFDRIKGLNVMQNLLTAHPDVQAVFAQNDEMALGALRALQTAGKSDVMVVGFDGTPDGEKAVNDGKLAATICQLPDQIGAKGVETADKVLKGEKVQAKYPVDLKLVVKQ
modifications: JPW4039 dye conjugate
B9: ribose BP A234C NBD (conjugate, UniProt P02925 26-296, looked up, variant A234C)
Ribose import binding protein …: KDTIALVVSTLNNPFFVSLKDGAQKEADKLGYNLVVLDSQNNPAKELANVQDLTVRGTKILLINPTDSDAVGNAVKMANQANIPVITLDRQATKGEVVSHIASDNVLGGKIAGDYIAKKAGEGAKVIELQGIAGTSAARERGEGFQQAVAAHKFNVLASQPADFDRIKGLNVMQNLLTAHPDVQAVFAQNDEMALGALRALQTAGKSDVMVVGFDGTPDGEKAVNDGKLAATICQLPDQIGAKGVETADKVLKGEKVQAKYPVDLKLVVKQ
modifications: NBD conjugate
B10: ribose BP A234C JPW4042 (conjugate, UniProt P02925 26-296, looked up, variant A234C)
Ribose import binding protein …: KDTIALVVSTLNNPFFVSLKDGAQKEADKLGYNLVVLDSQNNPAKELANVQDLTVRGTKILLINPTDSDAVGNAVKMANQANIPVITLDRQATKGEVVSHIASDNVLGGKIAGDYIAKKAGEGAKVIELQGIAGTSAARERGEGFQQAVAAHKFNVLASQPADFDRIKGLNVMQNLLTAHPDVQAVFAQNDEMALGALRALQTAGKSDVMVVGFDGTPDGEKAVNDGKLAATICQLPDQIGAKGVETADKVLKGEKVQAKYPVDLKLVVKQ
modifications: JPW4042 dye conjugate
B11: ribose BP D165C JPW4039 (conjugate, UniProt P02925 26-296, looked up, variant D165C)
Ribose import binding protein …: KDTIALVVSTLNNPFFVSLKDGAQKEADKLGYNLVVLDSQNNPAKELANVQDLTVRGTKILLINPTDSDAVGNAVKMANQANIPVITLDRQATKGEVVSHIASDNVLGGKIAGDYIAKKAGEGAKVIELQGIAGTSAARERGEGFQQAVAAHKFNVLASQPADFCRIKGLNVMQNLLTAHPDVQAVFAQNDEMALGALRALQTAGKSDVMVVGFDGTPDGEKAVNDGKLAATIAQLPDQIGAKGVETADKVLKGEKVQAKYPVDLKLVVKQ
modifications: JPW4039 dye conjugate
B12: ribose BP A234C Acrylodan (conjugate, UniProt P02925 26-296, looked up, variant A234C)
Ribose import binding protein …: KDTIALVVSTLNNPFFVSLKDGAQKEADKLGYNLVVLDSQNNPAKELANVQDLTVRGTKILLINPTDSDAVGNAVKMANQANIPVITLDRQATKGEVVSHIASDNVLGGKIAGDYIAKKAGEGAKVIELQGIAGTSAARERGEGFQQAVAAHKFNVLASQPADFDRIKGLNVMQNLLTAHPDVQAVFAQNDEMALGALRALQTAGKSDVMVVGFDGTPDGEKAVNDGKLAATICQLPDQIGAKGVETADKVLKGEKVQAKYPVDLKLVVKQ
modifications: acrylodan label
B13: ribose BP A234C JPW4045 (conjugate, UniProt P02925 26-296, looked up, variant A234C)
Ribose import binding protein …: KDTIALVVSTLNNPFFVSLKDGAQKEADKLGYNLVVLDSQNNPAKELANVQDLTVRGTKILLINPTDSDAVGNAVKMANQANIPVITLDRQATKGEVVSHIASDNVLGGKIAGDYIAKKAGEGAKVIELQGIAGTSAARERGEGFQQAVAAHKFNVLASQPADFDRIKGLNVMQNLLTAHPDVQAVFAQNDEMALGALRALQTAGKSDVMVVGFDGTPDGEKAVNDGKLAATICQLPDQIGAKGVETADKVLKGEKVQAKYPVDLKLVVKQ
modifications: JPW4045 dye conjugate

Test: Fluorescence emission spectra without and with saturating ligand (wavelength shift, ΔIstd, ΔRmax)
Conditions: for λmax,apo (nm): absence of ligand; for ΔIstd: standard intensity change; for ΔIstd / ΔRmax: unbound vs ligand-saturated; for ΔRmax: standard ratiometric change
In short: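 Emission spectra of bPBP–fluorophore conjugates (50–1000 nM protein, 25 °C, stirred) recorded without and with saturating ligand, using fluorophore-specific excitation. Wavelength shift, ΔIstd (intensity change at the mid-point wavelength) and ΔRmax (maximal ratiometric change over enumerated band pairs, 2 nm steps, 10 nm width) derived.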

[1] = emission maximum, saturating ligand (ligand column)
[2] = wavelength of emission maximum, saturating ligand

| Molecule | λmax,apo (nm) (emission maximum) | λmax,sat (nm) [1] | ΔIstd | ΔRmax | λmax,apo (nm) (wavelength of emission maximum) | λmax,sat (nm) [2] |
| --- | --- | --- | --- | --- | --- | --- |
| B1 | 543 | 539 | 0.45 | 0.41 |  |  |
| B2 |  |  |  |  | 623 | 622 |
| B3 |  |  |  |  | 520 | 520 |
| B4 |  |  |  |  | 558 | 559 |
| B5 |  |  |  |  | 519 | 518 |
| B6 |  |  |  |  | 671 | 647 |
| B7 | 602 | 604 | 0.20 | 0.29 |  |  |
| B8 |  |  |  |  | 598 | 600 |
| B9 |  |  |  |  | 546 | 548 |
| B10 |  |  |  |  | 668 | 654 |
| B11 |  |  |  |  | 589 | 593 |
| B12 |  |  |  |  | 504 | 522 |
| B13 |  |  |  |  | 636 | 578 |
